Results of unrelated studies side by side (data: NIAID ChemDB).

All rows: tests in culture; agent: HIV-1; measure: EC50

Two numbers with a dash give a range or band. Neighbouring rows are from separate reports. ECn is the concentration giving n% inhibition of infection, replication or growth. Blank or dashed fields: not listed here.

structure,strain,mutations,cell line,read by,result
Cc1cc(C#N)cc(C)c1Oc1nc(Nc2ccc(C#N)cc2)nc(N)c1Br,94ug114.1.6,-,HEK293T,luciferase,2.47 nM
O=C(C(=O)N1CCN(C(=O)c2ccc(Br)o2)CC1)c1c[nH]c2cccc(F)c12,-,-,HeLa + HELA CD4+/CCR5,luciferase,<10 µM
CCCc1cc(=O)oc2c3c(c4c(c12)OC(C)(C)CC4)O[C@@H](C)[C@H](C)[C@@H]3O,BaL,-,MM + M/M,p24,0.1 µM
CN1c2ccccc2C2C1C=C(C#N)C(=O)N2c1ccc([N+](=O)[O-])cc1,7324-1,-,HeLa,GFP / fluorescence,0.01 µM
O=C(C(=O)N1CCN(C(=O)c2ccccc2)CC1C(=O)O)c1c[nH]c2cccc(F)c12,-,-,HeLa + HELA CD4+/CCR5,luciferase,<10 µM
Cc1cc(C#N)cc(C(=O)c2cc(Cl)ccc2OCC(=O)Nc2ccc(S(N)(=O)=O)cc2C)c1,HXB2,RT-Y181C,HeLa + HELA CD4+,β-galactosidase,<0.01 µM
Cc1ncc(-c2ccc(N(C)CCOc3ccc(Cl)cc3)cn2)c(N2CCC(C)(C)CC2)c1[C@H](OC(C)(C)C)C(=O)O,NL4-3,-,MT-2,luminescence,0.0016 µM
Cc1cc2[nH]cnc2cc1NC(=O)COc1ccc(Cl)cc1C(=O)c1cc(F)cc(C(F)(F)F)c1,HXB2,RT-V106I Y181C,HeLa + HELA CD4+,β-galactosidase,<0.01 µM
CC(=O)c1ccc(C)cc1NC(C(N)=O)c1c(Cl)cccc1Cl,UC781-R (RT-Y181C),RT-Y181C,CEM + CEM-SS,cytopathic effect / XTT,>1 µM
C[C@H]1CO[C@@H]2Cn3cc(C(=O)NCc4ccc(F)cc4F)c(=O)c(O)c3C(=O)N12,NL4-3,G118R,CBMC,RT activity,0.0045 µM
CC(C)=CCOc1cc(NC(=S)c2ccsc2C)ccc1Cl,NL4-3,RT-L74V,CEM + CEM-SS,p24,0.006 µM
CC(C)=CCOc1cc(NC(=S)c2ccsc2C)ccc1Cl,Thiazolobenzimidazole-resistant (RT V108I),RT-V108I,CEM + CEM-SS,cytopathic effect / XTT,0.06 µM
Cc1cc2cn[nH]c2cc1NC(=O)COc1ccc(Cl)cc1C(=O)c1cccc(C#N)c1,HXB2,RT-V106A,HeLa + HELA CD4+,β-galactosidase,0.101–1 µM
Cc1ncc(-c2ccc(OCCOC3CCCCC3)cn2)c(N2CCC(C)(C)CC2)c1[C@H](OC(C)(C)C)C(=O)O,NL4-3,-,MT-2,luminescence,0.001 µM
CCC(=O)c1ccc(F)c([C@@H]2C[C@@H]2NC(=O)Nc2ccc(C#N)cn2)c1O,LAI,NNRTI-resistant (RT V179F),TZM-bl,β-galactosidase / luminescence,0.00003 µM
O=C(C(=O)N1CCN(C(=O)c2ccccc2)CC1)c1c[nH]c2c(F)ccc(Br)c12,-,-,HeLa + HELA CD4+/CCR5,luciferase,<10 µM
Cc1cc(S(N)(=O)=O)ccc1NC(=O)COc1ccc(Cl)cc1C(=O)c1cc(Cl)cc(C#N)c1,HXB2,RT-P236L,HeLa + HELA CD4+,β-galactosidase,<0.01 µM
O=C(C(=O)N1CCN(C(=O)c2ccccc2)CC1)c1c[nH]c2ccccc12,JR-FL,-,HeLa-CD4/CCR5,single cycle,0.2 µM
Cc1cc(C#N)cc(C(=O)c2cc(Cl)ccc2OCC(=O)Nc2ccc(S(N)(=O)=O)nc2C)c1,HXB2,RT-V106A Y181C,HeLa + HELA CD4+,β-galactosidase,<0.01 µM
CC1CN(C(=O)c2ccccc2)CC(C)N1C(=O)C(=O)c1c[nH]c2cccc(F)c12,-,-,HeLa + HELA CD4+/CCR5,luciferase,<10 µM
Cc1ccc(C)n1-c1ccc(C(=O)O)c(O)c1,93TH051 X4R5 CLADE E,-,PBMC + MT-2,p24,4.87 µM
Cc1cc(OCCCS(N)(=O)=O)ccc1NC(=O)COc1ccc(Cl)cc1C(=O)c1cc(F)cc(C(F)(F)F)c1,HXB2,RT-E138K,HeLa + HELA CD4+,β-galactosidase,<0.01 µM
CCCC1CN(C(=O)C(=O)c2c[nH]c3c(C(=O)OC)cccc23)CCN1C(=O)c1ccccc1,-,-,HeLa + HELA CD4+/CCR5,luciferase,<10 µM
Cc1ncc(-c2ccc(NCCOc3ccc(C(N)=O)cc3)cn2)c(N2CCC(C)(C)CC2)c1[C@H](OC(C)(C)C)C(=O)O,NL4-3,-,MT-2,luminescence,0.0794 µM
COc1cc(-c2ccc(N=Nc3ccc4c(S(=O)(=O)O)cc(S(=O)(=O)O)c(N)c4c3O)c(OC)c2)ccc1N=Nc1ccc2c(S(=O)(=O)O)cc(S(=O)(=O)O)c(N)c2c1O,PM16,-,CEM + CEM-SS,cytopathic effect / XTT,0.6 µM
CC(C)=CCOc1cc(NC(=S)c2ccoc2C)ccc1Cl,NL4-3 (RT M184V),RT-M184V,CEM + CEM-SS,cytopathic effect / XTT,0.02 µM
N#CC1=CC2Nc3ccccc3C2N(c2ccc([N+](=O)[O-])cc2)C1=O,4755-5,-,HeLa,GFP / fluorescence,0.12 µM
CC(=O)Oc1ccc(C(=O)N2CCN(C(=O)C(=O)c3c[nH]c4cccc(F)c34)CC2)cc1,-,-,HeLa + HELA CD4+/CCR5,luciferase,<10 µM
Cc1ncc(-c2ccc(OCCOc3cccc(Cl)c3)cn2)c(N2CCC(C)(C)CC2)c1[C@H](OC(C)(C)C)C(=O)O,NL4-3,-,MT-2,luminescence,0.0008 µM
CCc1cccc2c(C(=O)C(=O)N3CCN(C(=O)c4ccccn4)C[C@H]3C)c[nH]c12,-,-,HeLa + HELA CD4+/CCR5,luciferase,<10 µM
Cc1ccc(OCCNc2ccc(-c3cnc(C)c([C@H](OC(C)(C)C)C(=O)O)c3N3CCC(C)(C)CC3)nc2)c(Cl)c1,NL4-3,-,MT-2,luminescence,0.0013 µM
Cc1cc(Cl)cc(C(=O)c2cc(Cl)ccc2OCC(=O)Nc2ccc(S(N)(=O)=O)cc2C)c1,HXB2,RT-Y181C,HeLa + HELA CD4+,β-galactosidase,0.101–1 µM
Cc1ncc(-c2ccc(NCCOc3ccc(C#N)cc3)cn2)c(N2CCC(C)(C)CC2)c1[C@H](OC(C)(C)C)C(=O)O,NL4-3,-,MT-2,luminescence,0.005 µM
Cc1cc(S(N)(=O)=O)ccc1NC(=O)COc1ccc(Cl)cc1C(=O)c1cc(F)cc(C(F)(F)F)c1,IIIB,RT-V106I Y181C,HELA MAGI,luciferase,0.011 µM
Cc1ncc(-c2cnc(OCCNC(C)(C)C)c(F)c2)c(N2CCC(C)(C)CC2)c1[C@H](OC(C)(C)C)C(=O)O,NL4-3,-,MT-2,luminescence,0.0154 µM
C[C@H]1CN(C(=O)c2ccccc2)CCN1C(=O)C(=O)c1c[nH]c2cccc(Br)c12,-,-,HeLa + HELA CD4+/CCR5,luciferase,<10 µM

The last 2 rows once more:

structure | strain | mutations | cell line | read by | result
Cc1ncc(-c2cnc(OCCNC(C)(C)C)c(F)c2)c(N2CCC(C)(C)CC2)c1[C@H](OC(C)(C)C)C(=O)O | NL4-3 | - | MT-2 | luminescence | 0.0154 µM
C[C@H]1CN(C(=O)c2ccccc2)CCN1C(=O)C(=O)c1c[nH]c2cccc(Br)c12 | - | - | HeLa + HELA CD4+/CCR5 | luciferase | <10 µM